This is a selection; strong and weak results do not stand in their true shares. Activity calls are given as the source filed them. Rule as the data show it: active = inhibition above about 85%; inactive = the rest.
Test: growth inhibition of S. aureus RN4220, primary screen, OD600 (AID 1259311);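 also: plate controls were untreated cells for no effect and reference antibiotic for full effect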
Settings: OD600, 16 h, active compounds read high

| SMILES | inhibition |
| --- | --- |
| Cc1c([N+](=O)[O-])cc([N+](=O)[O-])c(Br)c1[N+](=O)[O-] | inactive: 5.85% |
| COC(=O)c1cc2c(s1)N=C(c1ccccc1)N(C)P2(=O)N1CCOCC1 (configuration not stated) | inactive: 5.12% |
| Cc1ccc(OP(=O)(Nc2ccccn2)Oc2ccc(C)cc2)cc1 | inactive: 6.03% |
| CC(=O)NC(SC(=S)N(CC(C)C)CC(C)C)C(Cl)(Cl)Cl (configuration not stated) | inactive: -2.89% |
| O=C(OC1CN2CCC1CC2)c1ccccc1 (configuration not stated) | inactive: 2.91% |
| CCN(CC)CCCOC(=O)C(O)(c1ccccc1)C1CCCCC1 (configuration not stated) | inactive: 2.52% |
| CC1OP(=O)(Oc2ccccc2)CC2OC12 (configuration not stated) | inactive: 0.933% |
| CCC(=O)N1C2C3N(C(=O)CC)C1C1N(C(=O)CC)C(C(N1C(=O)CC)N3C(=O)CC)N2C(=O)CC | inactive: 2.06% |
| O=P1(N(CCCl)CCCl)OCCC2CCCCN21 (configuration not stated) | inactive: 1.46% |
| CCOC(=O)c1ccc(NP(C)(=O)Oc2ccc(F)cc2)cc1 (configuration not stated) | inactive: 3.46% |
| COc1ccc(OP(C)(=O)Nc2ccc(SC(F)(F)F)cc2)cc1 (configuration not stated) | inactive: 4.11% |
| O=C(NC1CCS(=O)(=O)C1)NP(=S)(Oc1ccccc1)Oc1ccccc1 (configuration not stated) | inactive: 7.96% |
| c1ccc(-c2nn[nH]n2)c(-c2nn[nH]n2)c1 | inactive: 7.87% |
| Cc1ccc(NP(=O)(Oc2cccc(C)c2)Oc2cccc(C)c2)nc1 | inactive: 1.5% |
| CC(=O)Nc1ccc([As](=O)(O)O)c(O)c1 | inactive: 5.16% |
| CC(=O)Nc1ccc(Oc2c([N+](=O)[O-])cc([N+](=O)[O-])cc2[N+](=O)[O-])cc1 | inactive: 14.8% |
| NC(=NO)c1c(N)no[n+]1[O-] | inactive: 0.979% |
| CC(=O)c1ccc(N2CC2c2ccncc2)cc1 (configuration not stated) | inactive: 1.17% |
| O=C(OC1CN2CCC1CC2)c1ccc([N+](=O)[O-])cc1 (configuration not stated) | inactive: 4.15% |
| Cc1ccccc1CN(C)C(=O)COC(=O)C(O)(c1ccccc1)c1ccccc1 | inactive: 8.86% |
| O=C(OCCN1CCN(CCOCc2ccccc2)CC1)C(O)(c1ccccc1)c1ccccc1 | inactive: 6.2% |
| CCc1cc(O)c([N+](=O)[O-])c(C)c1[N+](=O)[O-] | inactive: 39.2% |
| CP(=O)(Nc1ccccc1F)Oc1ccccc1 (configuration not stated) | inactive: 2.7% |
| CC(C)(C)C(=O)NC(Sc1ccccc1)C(Cl)(Cl)Cl (configuration not stated) | inactive: 5.06% |
| CN(C(=O)Cc1ccccc1)C1CC[C@]2(CCCO2)CC1N1CCCC1 (some centres not stated) | inactive: 3.04% |
| O=P1(Nc2nc3ccc(Cl)cc3s2)COc2ccccc2O1 (configuration not stated) | inactive: 4.54% |
| CCOc1ccc(C2=NCC(CBr)S2)cc1 (configuration not stated) | inactive: 1.79% |

— PubChem BioAssay AID1259311 (ICCB-Longwood Screening Facility, Harvard Medical School, 2017)
